From patent US9447051B2, “Diaminopyrimidines and uses thereof” (AbbVie inc., priority 2012, dated 2016)

Tested on: RSV (Group A, Long Strain)
Assay: Antiviral (RSV) assay: cytopathetic effect (CPE) protection assay in HEp-2 cells, MTT readout
Type: cell-based, human respiratory syncytial virus (RSV)
Details: Table 2; therapeutic window, ratio of MTT TD50 to RSV EC50
Experimental: HEp-2 cells and RSV (Group A, Long Strain) were obtained from the American Type Culture Collection (Manassas, Va.). A cytopathetic effect (CPE) protection assay was performed to determine the ability of a compound to protect the cells from viral infection and thus the CPE induced by viral infection. 96-well plates were first seeded with 3×10^3 HEp-2 cells per well in Dulbecco's modified Eagle's medium (DMEM) containing 10% fetal bovine serum (FBS). One day after the cells were seeded, they were preincubated with serial dilutions of compounds prepared in 100 μL assay medium (DMEM mixed with F12 medium at a 1:1 ratio, supplemented with 2% FBS and 1 mM sodium pyruvate) for 1 hour at 37° C. 100 μL of assay medium containing 0.2 multiplicity of infection (MOI) of RSV was then added to each well of cells. In addition to wells containing infected cells incubated with compounds, each plate also contained replicates of two kinds of controls: (1) Virus control contained cells infected with 0.2 MOI of RSV in assay medium, (2) Uninfected cell control contained cells incubated with assay medium only. After 4 days of incubation at 37° C., the viability of cells was assessed using MTT (Thiazolyl blue tetrazolium bromide, Sigma). A stock solution of MTT, at a concentration of 4 mg/mL in phosphate-buffered saline, was added to all wells at 25 μL per well. Plates were further incubated for 4 hours, and each well was then treated with 50 μL of a solution containing 20% sodium dodecyl sulfate (SDS) and 0.02 N HCl. After an overnight incubation, the plates were measured on a BioTek® microtiter plate reader at wavelengths of 570 nm and 650 nm. The MTT detection is based on the fact that viable (uninfected) cells can reduce the tetrazolium salts into colored formazan products, which can then be quantitated by spectrometry. […] Compounds were tested to determine both their antiviral and toxicity to determine their therapeutic window. Determination of the EC50 and TD50 of these active compounds were repeated one additional time to confirm the window.

Structure (SMILES)	Window (TD50/EC50)
Cc1cc(NC2CCCCC2)nc(NCc2ccccn2)n1 [Example 4, N^4-cyclohexyl-6-methyl-N^2-(pyridin-2-ylmethyl)pyrimidine-2,4-diamine]	1.6
Cc1ccccc1CNc1nc(NCc2ccccn2)nc2c1CCC2 [Example 2, N^4-(2-methylbenzyl)-N^2-(pyridin-2-ylmethyl)-6,7-dihydro-5H-cyclopenta[d]pyrimidine-2,4-diamine]	3
Cc1nc(NCc2ccccn2)nc(NC2CCCCC2)c1C [Example 1, N^4-cyclohexyl-5,6-dimethyl-N^2-(pyridin-2-ylmethyl)pyrimidine-2,4-diamine]	153
Cc1cc(NC2CCCCCC2)nc(NCc2ccccn2)n1 [Example 3, N^4-cycloheptyl-6-methyl-N^2-(pyridin-2-ylmethyl)pyrimidine-2,4-diamine]	3
